Read-outs that look alike come from different tables or passages of the source.
Columns and labels:
[1] = Population PK analysis of Phase I data, 2-compartment model (Example 33, Table 43); parameters: species or system human
[2] = target: KPC-31 (Klebsiella pneumoniae, UniProt Q9F663, D178Y/H272Y); conditions: read-out: Ki app; KPC-31, class A; 30 min preincubation; n.d.: too low inhibitor activity at 100 µmol/L
[3] = Preliminary population PK analysis of Phase I data, 2-compartment model (Example 28, Table 38); parameters: species or system human
[4] = tested on: carbapenemase-producing Klebsiella pneumoniae; experiment: PK/PD target of Compound A with MEPM, intramuscular infection mouse model, 9 strains (Example 30, FIG. 11); type: in vivo; conditions: 5 strains of metallo-CPE
[5] = Plasma PK of Compound A after single intravenous dose (Example 21, Table 37); type: in vivo, dog; conditions: Dogs (n = 2); 1 mg/kg intravenous single dose
[6] = tested on: P. aeruginosa
[7] = target: VIM-1 (Pseudomonas aeruginosa, UniProt A0A0F7KYQ8); experiment: Binding rate constant k2/Ki, nitrocefin progress curves (Example 2); type: biochemical
[8] = Phase 1 study pharmacokinetics, 3-hour intravenous infusion (Example 31, Tables 39-42); type: in vivo, human; conditions: average (standard deviation)
[9] = tested on: carbapenemase-producing Acinetobacter baumannii; experiment: PK/PD target of Compound A with MEPM, intramuscular infection mouse model, 5 strains (Example 26, FIG. 9); type: in vivo; conditions: 5 strains of Acinetobacter baumannii pooled; in combination with MEPM
[10] = PK prediction in a clinical setting by allometric scaling (Example 23); parameters: species or system human; conditions: allometric scaling from rat, dog, monkey
[11] = tested on: carbapenemase-producing Enterobacteriaceae (CPE), Klebsiella pneumoniae; experiment: PK/PD target of Compound A with MEPM, intramuscular infection mouse model, 5 strains (Example 25, FIG. 8); type: in vivo; conditions: 5 strains of Klebsiella pneumoniae pooled; in combination with MEPM
[12] = target: KPC-33 (Klebsiella pneumoniae, UniProt Q9F663, D178Y); conditions: read-out: Ki app; KPC-33, class A; 30 min preincubation; n.d.: too low inhibitor activity at 100 µmol/L
[13] = Plasma PK of Compound A after single intravenous dose (Example 21, Table 37); type: in vivo, monkey; conditions: Monkeys (n = 2); 1 mg/kg intravenous single dose
[14] = as above; type: in vivo, rat; conditions: Rats (n = 3); 5 mg/kg intravenous single dose
[15] = tested on: Acinetobacter baumannii; experiment: Systemic infection lethal mouse model, ED50 (Example 15, Table 34)

Question: For `N[C@@H](C(=O)N1CC(Oc2ccc3c(c2C(=O)O)OB(O)CC3)C1)c1c[nH]cn1`, which “θmeropenem on CL, Estimated value (95% confidence interval)” value ([1]; 0 for non-combination) is on record?
Answer: -0.174 (-0.262, -0.0905) ;

Question: And the “θeGFR on CL, Estimated value (95% confidence interval)” value ([1]; covariate exponent, eGFR/108)?
Answer: 0.455 (0.353, 0.636)

Question: What about the “ωVp^2, Estimated value (95% confidence interval)” value ([1]; interindividual variability) of the same molecule?
Answer: 0.240 (0.0046, 0.5300)

Question: What about the “CL θCL, Estimated value (95% confidence interval)” value ([1]; population PK, 2-compartment model) of the same molecule?
Answer: 4.54 (4.27, 4.82) L/h

Question: And the Ki [2]?
Answer: 2.33 µM

Question: And the “IIV V1, Coefficient of variation % (Shrinkage %)” value ([3]; interindividual variability)?
Answer: 20.8(5.3) %

Question: What about the “IIV V2, Coefficient of variation % (Shrinkage %)” value ([3]; interindividual variability) of the same molecule?
Answer: 64.1(10.7) %

Question: What about the “Proportional error, Coefficient of variation % (Shrinkage %)” value ([3]; residual variability) of the same molecule?
Answer: 8.54(14.7) %

Question: What about the “%fT > 2 µg/mL required for a bacteriostatic effect” value [4] of the same molecule?
Answer: 20.0%

Question: And the C0 [5]?
Answer: 6.68 µg/mL

Question: What about the Vss [5] of the same molecule?
Answer: 0.373 L/kg

Question: And the t1/2 [5]?
Answer: 2.50 h

Question: What about the “effective dose of the MEPM reduced to” value ([6]; metallo-carbapenemase-producing P. aeruginosa) of the same molecule?
Answer: 1/4

Question: What about the “effective dose of the MEPM reduced to” value ([6]; serine-carbapenemase-producing P. aeruginosa) of the same molecule?
Answer: 1/9

Question: And the inactivation profile [7]?
Answer: typical linear inactivation profile of a fast on-fast off type

Question: What about the Cmax ([8]; 500 mg every 8 hours in combination with 2 g/dose of meropenem, day 5) of the same molecule?
Answer: 32.0 (10.5) µg/mL

Question: What about the Cmax ([8]; 500 mg every 8 hours, day 5 of repeated administration) of the same molecule?
Answer: 24.1 (2.85) µg/mL

Question: And the Cmax ([8]; 1000 mg every 8 hours, day 5 of repeated administration)?
Answer: 52.1 (6.32) µg/mL

Question: And the Cmax ([8]; 1500 mg every 8 hours in combination with 2 g/dose of meropenem, day 5)?
Answer: 117 (17.3) µg/mL

Question: And the Cmax ([8]; 1500 mg every 8 hours, day 5 of repeated administration)?
Answer: 97.0 (22.8) µg/mL

Question: What about the AUC0-inf ([8]; Japanese, single dose 250 mg) of the same molecule?
Answer: 55.0(7.51) µg·h/mL

Question: What about the AUC0-inf ([8]; Japanese, single dose 750 mg) of the same molecule?
Answer: 188(38.3) µg·h/mL

Question: What about the Cmax ([8]; Japanese, single dose 750 mg) of the same molecule?
Answer: 42.0(5.71) µg/mL

Question: And the AUC0-inf ([8]; Japanese, single dose 1500 mg)?
Answer: 461(128) µg·h/mL

Question: And the Cmax ([8]; Japanese, single dose 1500 mg)?
Answer: 93.5(21.8) µg/mL

Question: What about the AUC0-inf ([8]; single dose 50 mg) of the same molecule?
Answer: 11.1 (3.45) µg·h/mL

Question: What about the Cmax ([8]; single dose 50 mg) of the same molecule?
Answer: 2.71 (0.798) µg/mL

Question: And the AUC0-inf ([8]; single dose 125 mg)?
Answer: 31.9 (5.71) µg·h/mL

Question: What about the Cmax ([8]; single dose 125 mg) of the same molecule?
Answer: 7.44 (1.16) µg/mL

Question: And the AUC0-inf ([8]; single dose 250 mg)?
Answer: 59.7 (12.6) µg·h/mL

Question: And the Cmax ([8]; single dose 250 mg)?
Answer: 13.1 (3.88) µg/mL

Question: What about the AUC0-inf ([8]; single dose 750 mg) of the same molecule?
Answer: 135 (25.8) µg·h/mL

Question: And the Cmax ([8]; single dose 750 mg)?
Answer: 32.4 (4.76) µg/mL

Question: And the AUC0-inf ([8]; single dose 1500 mg)?
Answer: 353 (79.1) µg·h/mL

Question: And the Cmax ([8]; single dose 1500 mg)?
Answer: 71.3 (13. 8) µg/mL

Question: What about the AUC0-inf ([8]; single dose 2000 mg) of the same molecule?
Answer: 496 (86. 1) µg·h/mL

Question: What about the Cmax ([8]; single dose 2000 mg) of the same molecule?
Answer: 96.6 (9.99) µg/mL

Question: What about the “%fT > 4 µg/mL required for a 2-log kill” value [9] of the same molecule?
Answer: 22.3%

Question: And the “fAUC required for a 2-log kill” value [9]?
Answer: 142 µg·h/mL

Question: What about the “fAUC required for bactericidal effect (1 log kill)” value [9] of the same molecule?
Answer: 74 µg·h/mL

Question: What about the “fAUC required for bacteriostatic effect” value [9] of the same molecule?
Answer: 32 µg·h/mL

Question: And the “t1/2 (predicted)” value [10]?
Answer: 2.2 h

Question: What about the “%fT > 1 ug/mL required for bactericidal effect (1 log kill)” value [11] of the same molecule?
Answer: 36.4%

Question: And the “%fT > 1 ug/mL required for bacteriostatic effect” value [11]?
Answer: 12.2%

Question: What about the “fAUC required for bactericidal effect (1 log kill)” value [11] of the same molecule?
Answer: 134 µg·h/mL

Question: What about the “fAUC required for bacteriostatic effect” value [11] of the same molecule?
Answer: 15 µg·h/mL

Question: What about the Ki [12] of the same molecule?
Answer: 0.041 µM

Question: And the t1/2 [13]?
Answer: 1.30 h

Question: What about the “AUC0-∞” value [14] of the same molecule?
Answer: 13.6 ± 3.6 µg·h/mL

Question: What about the C0 [14] of the same molecule?
Answer: 18.0 ± 0.7 µg/mL

Question: And the t1/2 [14]?
Answer: 0.819 ± 0.101 h

Question: And the “effective dose of the MEPM reduced to” value ([15]; metallo-carbapenemase-producing Acinetobacter baumannii)?
Answer: 1/89

Question: What about the “effective dose of the MEPM reduced to” value ([15]; serine-carbapenemase-producing Acinetobacter baumannii) of the same molecule?
Answer: 1/25

— patent EP4635500A1, “THERAPEUTIC AGENT FOR BACTERIAL INFECTION” (Sumitomo Pharma Co., Ltd., priority 2022, dated 2024)
